Measured values from several laboratories, pooled; numbers as filed in NIAID ChemDB.

All rows: whole-cell or culture tests; species: Mycobacterium tuberculosis

Rows are shuffled and stem from different studies. Percent inhibition refers to the dose given; in toxicity tests it is the harm to the cells. A number after MIC or MFC names an inhibition level or a share of isolates. MIC bound: limit read from a one-dose screen. An empty or dashed field is not shown. a–b is a range or a potency band.

SMILES,cells,strain,method,setting,tested at,measure,value
Cc1c(Cl)c(=O)oc2cc(OCc3ccc(Br)cc3)ccc12,,H37Rv,fluorescence,,100 µM,inhibition,7.14%
CCOC(=O)c1cc(-c2ccc(Cl)cc2)n(CC(=O)N/N=C/c2ccccc2)c1C,,H37Rv,,,,MIC,>6.25 µg/mL
O=C(Nc1ccccc1)c1ccccc1O,,CNCTC MY331/88,,,,MIC,62.5 µM
CN[C@@H]1[C@H](O[C@H]2[C@H](O[C@H]3[C@H](O)[C@@H](O)[C@H](N=C(N)N)[C@@H](O)[C@@H]3N=C(N)N)O[C@@H](C)[C@]2(O)C=O)O[C@@H](CO)[C@H](O)[C@H]1O,,H37Rv,resazurin,,,MIC,6 µM
O=C(NCc1cccnc1)c1cc(Cl)ccc1O,,H37Rv,,14 d,,MIC,500 µM
Cc1ccc(C(=O)Nc2cccc([N+](=O)[O-])c2)c(O)c1,,CNCTC MY331/88,,,,MIC,4 µM
O=C(NC1CONC1=O)c1ccc(F)cc1,,H37Rv,,,,MIC,50 µg/mL
NNC(=O)Cc1cc(=O)[nH][nH]1,,H37Rv,BACTEC,,,MIC bound,>12.5 µg/mL
Fc1ccc(CNCCc2c[nH]c3ccccc23)cc1,,H37Ra,,,,MIC,32 µg/mL
Cc1c(C#N)c(=O)oc2cc(OCc3ccc(Br)cc3)ccc12,,H37Rv,fluorescence,,50 µM,inhibition,55.4%
CCOC(=O)C/C(C)=N/NC(=O)CCn1c(-c2ccc(Cl)cc2)cc(C(=O)OCC)c1C,,H37Rv,,,,MIC,>6.25 µg/mL
CC(C)(C)C1CCc2onc(C(=O)Nc3cnn(Cc4ccc(C(=O)NCc5ccccc5)cc4)c3)c2C1,,Rv3602c,resazurin,,,MIC,>128 µM
CCOC(=O)c1cc(-c2ccc(Cl)cc2)n(CCC(=O)N/N=C/c2ccccc2O)c1C,,H37Rv,,,6.25 µg/mL,inhibition,96%
O=CN(Cc1ccc(Cl)cc1)Cc1c[nH]c2ccccc12,,H37Ra,,,,MIC,32 µg/mL
Cc1cc(=O)oc2cc(OCCN3CCC(Cc4ccccc4)CC3)ccc12,,H37Rv,fluorescence,,50 µM,inhibition,70.5%
CCCCCc1ccc(Oc2ccccc2F)c(O)c1,,,,,,MIC100,1.56 µg/mL
Cc1ccc(C(=O)NCc2cccnc2)c(O)c1,,H37Rv,,21 d,,MIC,500 µM
CO[C@H]1/C=C/O[C@@]2(C)Oc3c(C)c(O)c4c(O)c(c(/C=N/N5CCN(C)CC5)c(O)c4c3C2=O)NC(=O)/C(C)=C\C=C\[C@H](C)[C@H](O)[C@@H](C)[C@@H](O)[C@@H](C)[C@H](OC(C)=O)[C@@H]1C,,ATCC 25177,,,,MIC,0.036 µM
CCOC(=O)Nc1cc(NC(C)CC(C)CN(CC)CC)c2nc(-c3ccccc3)c(-c3ccccc3)nc2n1,,H37Rv,,,,MIC,0.15 µg/mL
CN[C@@H]1[C@H](O[C@H]2[C@H](O[C@H]3[C@H](O)[C@@H](O)[C@H](N=C(N)N)[C@@H](O)[C@@H]3N=C(N)N)O[C@@H](C)[C@]2(O)C=O)O[C@@H](CO)[C@H](O)[C@H]1O,,ATCC 25177,,,,MIC,0.086 µM
O=C(Nc1ncc([N+](=O)[O-])s1)c1cccc([N+](=O)[O-])c1,VERO,H37Rv,,,,MIC,>6.25 µg/mL
CC(C)(C)C1CCc2onc(C(=O)Nc3cnn(Cc4ccc(C(=O)NCCc5ccccc5)cc4)c3)c2C1,,Rv3602c,resazurin,,,MIC,>128 µM
Cc1cn([C@H]2C[C@H](CN=[N+]=[N-])[C@@H](CO)O2)c(=O)[nH]c1=O,,H37Rv,,,,MIC,>6.25 µg/mL
Oc1cc(CC2CCCCC2)ccc1Oc1ccc(Cl)cc1Cl,,Clinical isolate 12081,,,,MIC,110 µM
Cn1cc(C(C[N+](=O)[O-])C[N+](=O)[O-])c2ccccc21,,H37Ra,,,,MIC,>128 µg/mL
CC(C)(C)C1CCc2onc(C(=O)Nc3cnn(Cc4ccccc4I)c3)c2C1,,Rv3602c,resazurin,,,MIC,>128 µM
Oc1cc(-c2ccccc2)ccc1Oc1ccc(Cl)cc1Cl,,Clinical isolate 5071,,,,MIC,27 µM
Fc1cccc(CNCCc2c[nH]c3ccccc23)c1F,,H37Ra,,,,MIC,64 µg/mL
CCCCNC(=S)S,,ETA-R,,,,MIC,>12.5 µg/mL
CCn1cc(C(=O)O)c(=O)c2cc(F)c(N3CCNC(C)C3)c(F)c21,,5 strains (wild type),,,,MIC,0.5–2 µg/mL
CCOC(=O)c1[nH]c(C)c(/C=N\NC(=O)c2ccncc2)c1C,,H37Rv,,,6.25 µg/mL,inhibition,97%
COC(=O)C1C(O)C(C)C(O)C(C)/C=C\C=C(/C)C(=O)Nc2c(C)c3c4c(c2O)C(=O)C(C)=C2OCCC(=C24)C(OC(C)=O)(C3)/C(C)=C/C(C)(O)C(O)C(C)C1O,,H37Rv,BACTEC,,,MIC bound,>12.5 µg/mL
Nc1ccc(-c2nnc(NCc3ccccc3)s2)cc1,,H37Rv,BACTEC,,6.25 µg/mL,inhibition,37%
O=c1cc2c(=O)oc3cc(O)c(O)oc3c2c(O)c1O,,H37Rv,BACTEC,,12.5 µg/mL,inhibition,-2%
CCCCCc1ccc(Oc2c(C)cccc2C)c(O)c1,,,,,,MIC100,100 µg/mL
O=C(O)c1cn(C2CC2)c2c(Cl)c(N3C[C@@H]4CCCN[C@@H]4C3)c(F)cc2c1=O,,Susceptible,,,,MIC90,0.13 µg/mL
COc1ccc(Cc2cc(N=O)c(C)cc2O)cc1,,H37Rv,BACTEC,,12.5 µg/mL,inhibition,42%
O=C(NCc1ccccc1)c1cc(Br)cc(Br)c1O,,H37Rv,,14 d,,MIC,32 µM
CC(O)[C@H]1C(=O)N2C(C([O-])O)=C(SC3Cn4cnc[n+]4C3)[C@H](C)[C@H]12,,,broth dilution / visual reading,,,MIC90,2.5–5 µg/mL
O=C(NC1CONC1=O)c1cccc(C(F)(F)F)c1,,13PI,,,,MIC,50 µg/mL
CN[C@@H]1[C@H](O[C@H]2[C@H](O[C@H]3[C@H](O)[C@@H](O)[C@H](N=C(N)N)[C@@H](O)[C@@H]3N=C(N)N)O[C@@H](C)[C@]2(O)C=O)O[C@@H](CO)[C@H](O)[C@H]1O,,9468 (streptomycin-S),,,,MIC,<4 µg/mL
O=C1NOCC1NC(=O)C(F)(F)F,,13PI,,,,MIC,6.25 µg/mL
O=C(NCc1ccccc1)c1cc(Cl)cc(Cl)c1O,,H37Rv,,14 d,,MIC,32 µM
COc1cc(/C=C/c2ccc(OC)c(OC)c2)oc(=O)c1,,H37Rv,BACTEC,,,MIC,≥12.5 µg/mL
COc1ccc(Cc2noc(NC(=O)c3noc4c3CC(C(C)(C)C)CC4)c2C(N)=O)cc1,,Rv3602c,resazurin,,,MIC,>128 µM
C[C@@H](O)[C@H]1C(=O)N2C(C(=O)O)=C([C@H]3CCCO3)S[C@H]12,,,broth dilution / visual reading,,,MIC90,2.5–5 µg/mL
CCCCCc1ccc(Oc2cnccc2C#N)c(O)c1,,,,,,MIC100,12.5 µg/mL
CO[C@H]1/C=C/O[C@@]2(C)Oc3c(C)c(O)c4c(O)c(c(/C=N/N5CCN6CCCCC6C5)c(O)c4c3C2=O)NC(=O)/C(C)=C\C=C\[C@H](C)[C@H](O)[C@@H](C)[C@@H](O)[C@@H](C)[C@H](OC(C)=O)[C@@H]1C,,H37Rv,,,,MIC,0.03 µg/mL
O=c1ccc2ccc(OCc3ccc(Br)cc3)cc2o1,,H37Rv,fluorescence,,1 µM,inhibition,3.72%
CC1=NN(C(=O)c2ccccc2)C(=O)C1N=Nc1ccc([N+](=O)[O-])cc1,,H37Rv,BACTEC,,,MIC bound,>12.8 µg/mL
CCOC(=O)c1ccc(NC(=O)c2cc(C)ccc2O)cc1,,CNCTC MY331/88,,,,MIC,>1000 µM
NCCCCC(C(=O)NC(Cc1ccc(O)cc1)C(=O)NC(CO)C(=O)OCc1ccc([N+](=O)[O-])cc1)N(C(=O)OCc1ccccc1)C(=O)OCc1ccccc1,,H37Rv,BACTEC,,12.8 µg/mL,inhibition,-12%
CC1(C)S[C@@H]2[C@H](NC(=O)[C@H](N)c3ccc(O)cc3)C(=O)N2[C@H]1C(=O)O,,27 strains,,,,MIC50,>32 µg/mL
C[C@H](O)[C@H]1C(=O)N2C(C(=O)O)=C(S[C@@H]3CN[C@H](C(=O)N(C)C)C3)[C@H](C)[C@H]12,,,broth dilution / visual reading,,,MIC90,4–8 µg/mL
Cc1[nH]c2ccc(N(C)C)cc2c(=O)c1CN1CCOCC1,,H37Rv,BACTEC,,,MIC bound,>12.5 µg/mL
CCCCCc1ccc(Oc2c(Cl)cccc2Cl)c(O)c1,,,,,,MIC100,25 µg/mL
COc1ccc(Nc2nnc(-c3ccc(NC(=S)Nc4ccccc4)cc3)s2)cc1,,H37Rv,BACTEC,,6.25 µg/mL,inhibition,5%
O=C(Nc1cccc(F)c1)c1cc(F)ccc1O,,CNCTC MY331/88,,,,MIC,31 µM
Fc1ccc(Nc2nnc(-c3ccc(NC(=S)Nc4ccccc4)cc3)s2)cc1,,H37Rv,BACTEC,,6.25 µg/mL,inhibition,0%
CNC(=O)CNC(=O)[C@@H](NC(=O)CNC(=O)[C@@H]1CCCN1C(=O)[C@H](C)NC(=O)[C@@H](NC(C)=O)C(C)C)C(C)C,,H37Rv,BACTEC,,12.5 µg/mL,inhibition,13%
CCCCNC(=O)Oc1ccc(C2=Nc3c(cc(NC(=O)OCC)nc3N)N[C@H]2C)cc1,,H37Rv,,,,MIC,>12.5 µg/mL
CO[C@H]1/C=C/O[C@@]2(C)Oc3c(C)c(O)c4c(c3C2=O)C(=O)c2cnc(nc2C4=O)/C(C)=C\C=C\[C@H](C)[C@H](O)[C@@H](C)[C@@H](O)[C@@H](C)[C@H](OC(C)=O)[C@@H]1C,,H37Rv,BACTEC,,12.5 µg/mL,inhibition,99%
CC(C)(C)C1CCc2onc(C(=O)Nc3cnn(Cc4ccc(C(=O)O)cc4)c3)c2C1,,Rv3602c,resazurin,,,MIC,>128 µM
CCCNc1nnc(-c2ccc(N=N/C(C(C)=O)=C(/C)O)cc2)s1,,H37Rv,BACTEC,,6.25 µg/mL,inhibition,36%
NC(=S)SCCC(=O)N1CCCC1,,H37Rv,BACTEC,,12.5 µg/mL,inhibition,23%
CN(C)Cc1c[nH]c2ccccc12,,H37Ra,,,,MIC,>256 µg/mL
CC/C(C)=C1\OC(=O)[C@H](C)[C@@H](O)[C@H](Cc2cccnc2)NC(=O)[C@@H](NC(=O)c2ncccc2O)[C@@H](C)OC1=O,,H37Rv,BACTEC,,12.5 µg/mL,inhibition,74%
Fc1cc(F)cc(CNCCc2c[nH]c3ccccc23)c1,,H37Ra,,,,MIC,64 µg/mL
Nc1ccc(-c2nnc(Nc3ccc(F)cc3)s2)cc1,,H37Rv,BACTEC,,6.25 µg/mL,inhibition,57%
CC(C)(C)C1CCc2onc(C(=O)Nc3cnn(Cc4ccccc4)c3)c2C1,,Rv3602c,,,,MIC,>128 µM
Clc1ccc(CNCc2c[nH]c3ccccc23)cc1,,H37Ra,,,,MIC,16 µg/mL
CN(C)C1C(=O)C(C(=O)NCNC(CO)(CO)CO)=C(O)C2(O)C(=O)C3=C(O)c4c(O)cccc4C(C)(O)C3CC12,,H37Rv,BACTEC,,,MIC bound,>12.5 µg/mL
O=C(Nc1ccc(Br)cc1)c1cc(F)ccc1O,,CNCTC MY331/88,,,,MIC,8 µM
O=C(NCc1cccnc1)c1ccc(Cl)cc1O,,H37Rv,,21 d,,MIC,250 µM
O=C(N/N=C/c1ccccc1)c1nn[nH]n1,,H37Rv,BACTEC,,12.5 µg/mL,inhibition,22%
Sc1cccc2cccnc12,,2 strains,,,,MIC,31 µM
C[N+](C)(C)CC(=O)N/N=C/c1c(O)ccc2ccccc12.[Cl-],,H37Rv,BACTEC,,,MIC bound,>12.5 µg/mL
Fc1ccc(F)c(CNCc2c[nH]c3ccccc23)c1,,H37Ra,,,,MIC,64 µg/mL
Cc1ccc(NC(=O)/C(=N\NC(=O)CC#N)C2C(=O)N(c3ccccc3)N=C2N)cc1C,,H37Rv,resazurin,,,MIC bound,>6.25 µg/mL
CC(C)(C)C1CCc2onc(C(=O)Nc3cn[nH]c3)c2C1,,Rv3602c,resazurin,,,MIC,>128 µM
FC(F)(F)c1ccc(NC(=S)SCc2ccc3c(c2)OCO3)cc1,,H37Rv,resazurin,,6.25 µg/mL,inhibition,15%
N#Cc1c(NC(=O)c2ccc(Cl)cc2)oc(-c2ccccc2)c1-c1ccccc1,,H37Rv,resazurin,,50 µg/mL,inhibition,19%
OC(c1cc(-c2ccccc2)nc2c(Cl)cc(Cl)cc12)C1CCCCN1,VERO,H37Rv,,,,MIC,3.13 µg/mL
Clc1cccc(Cl)c1CNCc1c[nH]c2ccccc12,,H37Ra,,,,MIC,64 µg/mL

For reference, 9 entries again:

SMILES,cells,strain,method,setting,tested at,measure,value
COc1ccc(Cc2cc(N=O)c(C)cc2O)cc1,,H37Rv,BACTEC,,12.5 µg/mL,inhibition,42%
Oc1cc(CC2CCCCC2)ccc1Oc1ccc(Cl)cc1Cl,,Clinical isolate 12081,,,,MIC,110 µM
CN[C@@H]1[C@H](O[C@H]2[C@H](O[C@H]3[C@H](O)[C@@H](O)[C@H](N=C(N)N)[C@@H](O)[C@@H]3N=C(N)N)O[C@@H](C)[C@]2(O)C=O)O[C@@H](CO)[C@H](O)[C@H]1O,,H37Rv,resazurin,,,MIC,6 µM
CN[C@@H]1[C@H](O[C@H]2[C@H](O[C@H]3[C@H](O)[C@@H](O)[C@H](N=C(N)N)[C@@H](O)[C@@H]3N=C(N)N)O[C@@H](C)[C@]2(O)C=O)O[C@@H](CO)[C@H](O)[C@H]1O,,9468 (streptomycin-S),,,,MIC,<4 µg/mL
NNC(=O)Cc1cc(=O)[nH][nH]1,,H37Rv,BACTEC,,,MIC bound,>12.5 µg/mL
O=CN(Cc1ccc(Cl)cc1)Cc1c[nH]c2ccccc12,,H37Ra,,,,MIC,32 µg/mL
Fc1cccc(CNCCc2c[nH]c3ccccc23)c1F,,H37Ra,,,,MIC,64 µg/mL
Cc1cn([C@H]2C[C@H](CN=[N+]=[N-])[C@@H](CO)O2)c(=O)[nH]c1=O,,H37Rv,,,,MIC,>6.25 µg/mL
CCOC(=O)c1[nH]c(C)c(/C=N\NC(=O)c2ccncc2)c1C,,H37Rv,,,6.25 µg/mL,inhibition,97%